Drawing on patent publication US20090104214A1 (priority 2004, published 2009), this text covers IC50 for two molecules.

The target of the test is T1, P13423 (Bacillus anthracis), P13423.
T1 chain: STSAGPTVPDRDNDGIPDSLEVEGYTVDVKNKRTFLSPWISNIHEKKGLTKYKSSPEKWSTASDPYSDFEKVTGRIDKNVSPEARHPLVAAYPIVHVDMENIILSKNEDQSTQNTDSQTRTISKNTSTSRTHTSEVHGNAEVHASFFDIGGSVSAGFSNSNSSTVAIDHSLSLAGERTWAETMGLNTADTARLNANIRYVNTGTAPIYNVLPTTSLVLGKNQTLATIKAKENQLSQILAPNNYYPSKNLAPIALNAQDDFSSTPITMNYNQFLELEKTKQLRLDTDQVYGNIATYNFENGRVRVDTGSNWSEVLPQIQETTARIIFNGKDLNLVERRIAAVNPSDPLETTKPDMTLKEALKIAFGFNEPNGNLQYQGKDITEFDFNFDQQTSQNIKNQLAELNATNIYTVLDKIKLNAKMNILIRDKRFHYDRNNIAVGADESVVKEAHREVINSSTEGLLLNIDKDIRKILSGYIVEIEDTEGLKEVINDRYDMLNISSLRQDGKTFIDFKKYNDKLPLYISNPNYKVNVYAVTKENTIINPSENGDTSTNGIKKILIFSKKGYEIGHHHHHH
Nature of the test: ELISA inhibition of PA63-LF binding. As to conditions: chains peptide; modification not given. A general note: ELISA stands for enzyme-linked immunosorbent assay.

B1: MAP3, tetra-branched Multiple Antigen Peptide of … (peptide)
chain: NVMTYWWLDPPL
In general, IC50 refers to the concentration at which inhibition is half-maximal. The molecule B1 had an IC50 of 0.4 µM.

B2: MAP2, tetra-branched Multiple Antigen Peptide of … (peptide)
chain: TLPYWWLTPSNP
As to B2, the IC50 came out at 6.5 µM.
